Reference: patent US7569573B2, “Diketo acids with nucleobase scaffolds: anti-HIV replication inhibitors targeted at HIV integrase” (The University of Georgia Research Foundation, Inc., priority 2005, dated 2009)
The source's definition of the ratio is not given here.

Test system: HIV
Experiment: In vitro anti-HIV activity, PBMC cell-based assay, side by side with AZT
Settings: side by side comparison with AZT

Row | Structure (SMILES) | Therapeutic Index
1 | O=C(O)/C(O)=C/C(=O)c1cn(Cc2ccccc2)c(=O)n(Cc2ccccc2)c1=O | > 10,000
2 | Cc1cn([C@H]2C[C@H](N=[N+]=[N-])[C@@H](CO)O2)c(=O)[nH]c1=O [AZT] | 5,511
